Compound potency records, mixed from different reports. Data source: NIAID ChemDB in PubChem.

Shared fields: whole-cell or culture tests

Zones are inhibition diameters on agar.

structure,strain,method,endpoint,agent,mutations,cells,tested at,value
COc1ccc(C(F)(F)F)cc1NCc1cnc2nc(N)nc(N)c2c1C,-,-,inhibition,Encephalitozoon intestinalis,-,RK-13,0.1 µg/mL,65.4%
CC1COc2c(N3CCN(C)CC3)c(F)cc3c(=O)c(C(=O)O)cn1c23,30 strains,-,MIC90,Streptococcus pneumoniae,-,-,-,2 µg/mL
CN(C)[C@@H]1C(=O)C(C(N)=O)=C(O)[C@@]2(O)C(=O)C3=C(O)c4c(O)c(NC(=O)CN5CCOCC5)cc(F)c4C[C@H]3C[C@@H]12,111-27853,agar diffusion,MIC,Pseudomonas aeruginosa,-,-,-,>32 µg/mL
CN(C)c1cc(NC(=O)CNC(C)(C)C)c(O)c2c1C[C@H]1C[C@H]3[C@H](N(C)C)C(=O)C(C(N)=O)=C(O)[C@@]3(O)C(=O)C1=C2O,T45,broth dilution,MIC,Mycobacterium abscessus,-,-,-,0.25 µg/mL
Nc1nccc2c1ncn2[C@@H]1C[C@H](CO)[C@@H](O)[C@H]1O,-,cytopathic effect,EC50,Vesicular stomatitis virus,-,HK,-,0.4 µg/mL
OC(Cn1cncn1)(Cn1cncn1)c1ccc(F)cc1F,YL 331,broth dilution,MIC,Candida albicans,-,-,-,512 µg/mL
CN(C)c1ccc(O)c2c1C[C@H]1C[C@H]3[C@H](N(C)C)C(=O)C(C(N)=O)=C(O)[C@@]3(O)C(=O)C1=C2O,-,broth dilution,MIC,Mycobacterium bolletii,-,-,-,>128 µg/mL
CC(C)=CCN1Cc2cc(Cl)cc3[nH]c(=S)n(c23)C[C@@H]1C,-,-,EC95,HIV-1,RT-K70R,MT-4,-,1.5 µM
COc1ccc(OC)c(NCc2cnc3nc(N)nc(N)c3c2C)c1,-,-,inhibition,Encephalitozoon intestinalis,-,RK-13,0.1 µg/mL,28.3%
C[C@H](Cc1ccc(O)c(O)c1)[C@@H](C)Cc1ccc(O)c(O)c1,CCC 122-2000,broth dilution,MIC80,Candida colliculosa,-,-,-,250 µg/mL
COc1ccc(C)cc1NCc1cnc2nc(N)nc(N)c2c1C,-,-,inhibition,Encephalitozoon intestinalis,-,RK-13,0.1 µg/mL,72.2%
COc1cc2oc(=O)ccc2cc1CC(O)C(C)(C)O,ESBL-3967,agar diffusion,zone,Klebsiella pneumoniae,-,-,250 µg/disc,9 mm
O=C(NC(=O)c1c(F)cccc1F)Nc1cc(Cl)c(OC(F)(F)C(F)C(F)(F)F)cc1Cl,-,-,inhibition,Encephalitozoon intestinalis,-,RK-13,2.5 µg/mL,32.2%
CCO/N=C/c1ccc(OCCC2CCN(c3ccc(C)nn3)CC2)cc1,K2207 (ICAM-1 receptor group 72),neutral red,EC50,Rhinovirus,-,KB,-,0.109 µM
C#CC[C@@H](C(=O)N[C@H](/C=C/C(=O)OCC)C[C@@H]1CCNC1=O)n1cccc(NC(=O)c2cc(C)on2)c1=O,Serotype 17,cytopathic effect / XTT,EC50,Rhinovirus,-,H1-HELA,-,0.023 µM
COc1cc(NCc2cnc3nc(N)nc(N)c3c2C)cc(OC)c1,-,-,inhibition,Encephalitozoon intestinalis,-,RK-13,0.1 µg/mL,57.2%

2 of the rows above, restated:

| structure | strain | method | endpoint | agent | mutations | cells | tested at | value |
|---|---|---|---|---|---|---|---|---|
| CN(C)c1cc(NC(=O)CNC(C)(C)C)c(O)c2c1C[C@H]1C[C@H]3[C@H](N(C)C)C(=O)C(C(N)=O)=C(O)[C@@]3(O)C(=O)C1=C2O | T45 | broth dilution | MIC | Mycobacterium abscessus | - | - | - | 0.25 µg/mL |
| CCO/N=C/c1ccc(OCCC2CCN(c3ccc(C)nn3)CC2)cc1 | K2207 (ICAM-1 receptor group 72) | neutral red | EC50 | Rhinovirus | - | KB | - | 0.109 µM |

Percent inhibition refers to the dose given; in toxicity tests it is the harm to the cells. A number after MIC or MFC names an inhibition level or a share of isolates. Lines come from different laboratories, so protocols vary. Blank or dashed fields: not listed here. ECn is the concentration giving n% inhibition of infection, replication or growth.